A short description of series [1]: Cytotoxicity against human NHDF cells infected with MAYV assessed as cell viability at 0.01 to 100 uM incubated with cells for 1 hr followed by viral infection for 2 hrs and subsequent replacement of fresh media with compound measured after 24 hrs post-infection by Cell Titer Glo assay. The conditions noted are these: 25 h. In general terms: In ATP-based viability assays light output follows the ATP content of the culture.

In series [2] the test system is Venezuelan equine encephalitis virus. Briefly: Anti-viral activity against VEEV infected in human NHDF cells assessed as log reduction in viral titer at 0.01 to 100 uM incubated with cells for 1 hr followed by viral infection for 2 hrs and subsequent replacement of fresh media with compound measured after 24 hrs post-infection by extracting viral supernatant from cells and transferring supernatant to African geen monkey Vero cells for measurin. The settings on record: dose 0.01-100 µM; time 25 hrs.

Series [3] in a line: Cytotoxicity against human NHDF cells infected with VEEV assessed as cell viability at 0.01 to 100 uM incubated with cells for 1 hr followed by viral infection for 2 hrs and subsequent replacement of fresh media with compound measured after 24 hrs post-infection by Cell Titer Glo assay. The conditions noted are these: 25 h.
The nature of series [4]: Cytotoxicity against human NHDF cells infected with CHIKV assessed as cell viability at 0.01 to 100 uM incubated with cells for 1 hr followed by viral infection for 2 hrs and subsequent replacement of fresh media with compound measured after 24 hrs post-infection by Cell Titer Glo assay. The conditions noted are these: 25 h.

Take `O=C(N1CCC2(CC1)CC(CN1CCCCS1(=O)=O)CCO2)C1(c2ccccc2)CCCC1` (centres undefined): the Activity entry in series [1] is “Non-toxic”; in series [2], 0.01 10^5No_unit; in series [3], “Non-toxic”; in series [4], “Non-toxic”.

For the origin of these results see ChEMBL document CHEMBL6178023 (J Med Chem, 2025).
